# Reference: article PMC9579337
# Legend:
# [1] = target: TSG-6 (tumor necrosis factor alpha stimulated gene/protein 6), recombinant human, Trp18-Leu277, C-terminal 10-His tag (human) (UniProt P98066); assay: AlphaScreen or HTRF; competition: end-biotinylated 50 kDa HA (0.2 nM final), His-TSG-6 (14 nM final) and increasing unlabelled PRG4 premixed 2 h at room temperature in PBS-T, then nickel chelate acceptor beads and streptavidin donor beads; the signal reports HA-TSG-6 binding
# [2] = target: TSG-6 (tumor necrosis factor alpha stimulated gene/protein 6), recombinant human, Trp18-Leu277, C-terminal 10-His tag (human) (UniProt P98066)
substance,measurement,setting,value
"Full length recombinant human Proteoglycan 4 (PRG4, lubricin) (from UniProt Q92954 25-1404) (natural protein)",IC50,[1],5 to 10 nM
same,"PRG4 concentration that halves the AlphaLISA signal of TSG-6-mediated HA crosslinking (1 nM bHA, 150 nM TSG-6)",[2],1 nM
